Laboratory results from patent US8324227B2, “Thieno[2,3-D]-pyrimidin-4(3H)-one compounds with antifungal properties and process thereof” (FDC Limited, priority 2008, dated 2012).

Experiments:
Assay in all cases: Antifungal susceptibility, MIC by broth macro-dilution method
Details in all cases: RPMI 1640 medium with MOPS buffer, end points after 48 hours, NI till x = no inhibition up to x
[1] = tested on: F. proliferatum (ATCC 10052); type: cell-based, Fusarium proliferatum
Method: (§1) In vitro evaluation of antifungal activity was performed by determining the minimum inhibitory concentration (MIC). Anti-fungal susceptibility testing of these anti-fungal compounds was done by broth dilution method using RPMI 1640 medium with MOPS buffer. Known anti-fungal agents like fluconazole and amphotericin-B were used as positive control. End points were determined after 48 hours visually and by using spectrophotometer wherever necessary. Different dilutions were, tried and various sets of experiments performed.

[2] = tested on: A. niger (ATCC 16404); type: cell-based, Aspergillus niger
Method: as §1

[3] = tested on: C. albicans (ATCC 24433); type: cell-based, Candida albicans
Method: as §1

amphotericin-B
MIC against fungi, F. proliferatum (ATCC 10052) [1]: 1 to 2 µg/mL | MIC against fungi, A. niger (ATCC 16404) [2]: 0.25 to 1 µg/mL | MIC against fungi, C. albicans (ATCC 24433) [3]: 0.12 to 0.25 µg/mL
